This is a selection; strong and weak results do not stand in their true shares. Entries with a potency or affinity are not part of this list. Some salts and complexes are drawn in separate pieces, as the source files them; their charges need not balance. Active and inactive are the calls of the source.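 How the source made its calls: active means primary inhibition above the hit cutoff, then over 50% inhibition at one or more dose response concentrations (cut at about 23% in these data, passing the limit was not always enough); inconclusive means conflicting primary data, or primary hits not chosen for dose response; inactive means low primary inhibition, or under 50% at every dose.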

Sequences of proteins named here, by UniProt entry; tags and fusion partners are left off.
UniProt O96935, whole entry: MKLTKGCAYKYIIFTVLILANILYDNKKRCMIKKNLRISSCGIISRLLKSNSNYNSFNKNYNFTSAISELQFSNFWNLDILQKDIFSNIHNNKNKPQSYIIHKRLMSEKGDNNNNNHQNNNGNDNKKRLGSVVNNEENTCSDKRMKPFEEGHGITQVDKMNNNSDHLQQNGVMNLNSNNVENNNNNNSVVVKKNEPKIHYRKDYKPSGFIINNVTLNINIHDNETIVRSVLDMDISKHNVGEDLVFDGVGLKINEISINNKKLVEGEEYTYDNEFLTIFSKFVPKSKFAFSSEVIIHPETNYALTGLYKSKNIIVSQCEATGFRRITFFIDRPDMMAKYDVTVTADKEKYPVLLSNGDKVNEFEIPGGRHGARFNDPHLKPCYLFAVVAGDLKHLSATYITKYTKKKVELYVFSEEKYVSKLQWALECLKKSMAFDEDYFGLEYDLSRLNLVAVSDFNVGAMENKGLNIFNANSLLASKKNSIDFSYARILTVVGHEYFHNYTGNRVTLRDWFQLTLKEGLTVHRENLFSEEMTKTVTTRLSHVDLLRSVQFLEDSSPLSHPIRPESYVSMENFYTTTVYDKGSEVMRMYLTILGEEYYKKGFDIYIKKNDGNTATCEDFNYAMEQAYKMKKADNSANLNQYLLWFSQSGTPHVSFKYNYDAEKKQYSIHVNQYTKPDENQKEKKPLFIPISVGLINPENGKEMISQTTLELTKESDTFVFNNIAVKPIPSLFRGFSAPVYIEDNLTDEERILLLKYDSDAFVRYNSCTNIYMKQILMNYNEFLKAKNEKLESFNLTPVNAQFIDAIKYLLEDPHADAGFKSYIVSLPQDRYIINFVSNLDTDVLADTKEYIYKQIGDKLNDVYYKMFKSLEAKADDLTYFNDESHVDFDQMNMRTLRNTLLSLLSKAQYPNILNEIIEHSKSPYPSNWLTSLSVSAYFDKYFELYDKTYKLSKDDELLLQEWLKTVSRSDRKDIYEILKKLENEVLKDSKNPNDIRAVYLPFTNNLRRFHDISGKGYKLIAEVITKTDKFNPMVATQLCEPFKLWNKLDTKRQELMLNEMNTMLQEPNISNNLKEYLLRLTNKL

The target of this assay is Aminopeptidase N (Plasmodium falciparum (isolate 3D7)) (UniProt O96935). The assay is described as follows: malaria alanyl aminopeptidase activity blockers – biochemical, fluorogenic H-Leu-NHMec substrate, 1536-well (AID 1445).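 Further: plate controls were DMSO full reaction for no effect and no enzyme background for full effect.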 The note with it: recombinant M1AAP, H-Leu-NHMec fluorogenic kinetic assay; at 30 µM; hits give high values.
The inhibition is the relative decrease from the control value, in per cent. `CCOP(C)(=S)SCC(=O)NC(C)(CC)C(=O)O` (stereo not drawn): the inhibition is inactive: 6.76%. The result for `CP(=O)(Nc1ccc(SC(F)(F)F)cc1)Oc1ccc(F)cc1` (stereo not drawn) reads inactive: 1.4%; that for `Cc1ccccc1NP(C)(=O)Nc1ccccc1C`, inactive: 3.85%. For the molecule `CP(=O)(Nc1ccc2c(c1)OCCO2)Oc1ccccc1` (stereo not drawn), the inhibition was inactive: 4.79%. The result for `CN(C)CCOC(=O)C(O)(c1ccccc1)C1CCCCC1` (stereo not drawn) reads inactive: 4.22%; that for `COc1ccc(NP(C)(=O)Oc2ccccc2OC)cc1` (stereo not drawn), inactive: 0.58%.

In the case of `COc1ccc(OP(C)(=O)Nc2cccc(Br)c2)cc1` (stereo not drawn), the inhibition is inactive: 1.99%.

As to `O=[N+]([O-])c1ccc(OP2(=O)COCCO2)cc1` (stereo not drawn), the inhibition is inactive: -1%. For the molecule `Cc1cc(-c2cccc3ccccc23)c(C)cn1.O=[N+]([O-])c1cc([N+](=O)[O-])c(O)c([N+](=O)[O-])c1`, the inhibition is inactive: 11.1%. Take `O=[N+]([O-])c1cc([N+](=O)[O-])c(NCC2CCS(=O)(=O)C2)c([N+](=O)[O-])c1` (stereo not drawn): the inhibition was inactive: 4.45%. Consider `CCOC(=O)c1ccc(NP(C)(=O)Oc2ccc(F)cc2)cc1` (stereo not drawn), for which the inhibition was inactive: 4.78%. The result for `COc1ccc(OP(C)(=O)Nc2ccc(SC(F)(F)F)cc2)cc1` (stereo not drawn) reads inactive: 0.39%; that for `CP(=O)(Nc1ccccc1)Oc1ccc(F)cc1` (stereo not drawn), inactive: 5%. `CCCCCOc1ccc(NP(C)(=O)Oc2ccc(Cl)cc2Cl)cc1` (stereo not drawn): the inhibition is inactive: -0.22%. In the case of `CCN(CC)CCCOC(=O)C(O)(c1ccccc1)C1CCCCC1` (stereo not drawn), the inhibition is inactive: 1.79%. Consider `CP(=O)(Nc1ccccc1F)Oc1ccccc1` (stereo not drawn), for which the inhibition was inactive: -3.51%. On to `CC(C)c1ccc(OP(C)(=O)Nc2ccc(SC(F)(F)F)cc2)cc1` (stereo not drawn), for which the inhibition was inactive: 10.1%. Consider `COc1ccc2c(c1O)-c1c(O)c(OC)cc3c1[C@H](C2)[N+](C)(C)CC3.O=[N+]([O-])c1cc([N+](=O)[O-])c([O-])c([N+](=O)[O-])c1[O-]`, for which the inhibition was inactive: 9.32%. To `O=C(OC1CN2CCC1CC2)c1ccc([N+](=O)[O-])cc1` (stereo not drawn) belongs inactive: -2.51%. To `O=C(OCCN1CCN(CCOCc2ccccc2)CC1)C(O)(c1ccccc1)c1ccccc1` belongs inactive: -0.28%; to `COc1ccc(OP(C)(=O)Nc2ccccn2)cc1` (stereo not drawn), inactive: 13.7%.

Regarding `CN(C)CCOC(=O)C(O)(c1ccccc1)C1CCCC1` (stereo not drawn), the inhibition is inactive: 0.84%. For the molecule `COc1ccccc1OP(C)(=O)Nc1ccc(Br)cc1` (stereo not drawn), the inhibition was inactive: 0.15%. To `CP(=O)(Nc1ccccn1)Oc1ccccc1` (stereo not drawn) belongs inactive: 0.12%. To `COc1ccccc1OP(C)(=O)Nc1ccc(C)cc1C` (stereo not drawn) belongs inactive: 1.22%.

In the case of `CCc1ccc(OP(C)(=O)O)cc1`, the inhibition is inactive: -5.24%. To `O=[N+]([O-])c1cc([N+](=O)[O-])c(Nc2ccccn2)c([N+](=O)[O-])c1` belongs inactive: 1.85%. The result for `Cc1c(NP(C)(=O)Oc2ccc(C(C)C)cc2)c(=O)n(-c2ccccc2)n1C` (stereo not drawn) reads inactive: 6.81%.

Turning to `COc1ccccc1OP(C)(=O)Nc1ccc(C)c(C)c1` (stereo not drawn), the inhibition is inactive: -0.61%.

On to `COc1ccc(OP(C)(=O)Nc2ccccc2Br)cc1` (stereo not drawn), for which the inhibition is inactive: 2.96%. To `Cc1cc(C)cc(OP(C)(=O)Nc2cccc(C(F)(F)F)c2)c1` (stereo not drawn) belongs inactive: -0.14%. To `CP(=O)(OCCOc1ccccc1)OCCOc1ccccc1` belongs inactive: 2.41%; to `CP(=O)(Nc1ccc(Cl)cc1Cl)Oc1ccccc1` (stereo not drawn), inactive: 4.57%; to `Cc1nc2ccc3ccccc3c2o1.O=[N+]([O-])c1cc([N+](=O)[O-])c(O)c([N+](=O)[O-])c1`, inactive: 11.6%.

On to `CCOC(=O)c1ccc(NP(C)(=O)Oc2ccc(Cl)cc2)cc1` (stereo not drawn), for which the inhibition is inactive: -4.07%. To `CP(=O)(OC12CC3CC(CC(C3)C1)C2)OC12CC3CC(CC(C3)C1)C2` belongs inactive: 4.93%; to `O=C(OCCCN1CCCC1)C(O)(c1ccccc1)C1CCCCC1` (stereo not drawn), inactive: 11.4%; to `CP(=O)(Oc1ccccc1)N1CCOC1=O` (stereo not drawn), inactive: 3.97%. The result for `CCc1ccc(OP(C)(=O)Nc2cccnc2)cc1` (stereo not drawn) reads inactive: -0.17%; that for `CCN(CC)CC(O)COC(=O)C(O)(c1ccccc1)C1CCCCC1` (stereo not drawn), inactive: -2.3%; that for `COc1ccc(OP(C)(=O)Nc2ccc(Br)cc2)cc1` (stereo not drawn), inactive: -1.48%. `CN(C)C(=O)c1c([N+](=O)[O-])cc([N+](=O)[O-])cc1[N+](=O)[O-]`: the inhibition is inactive: 4.25%.

With `CC(C)(C)c1ccc(OP(C)(=O)O)cc1`, the inhibition is inactive: 11.9%.

Regarding `COc1ccccc1OP(C)(=O)Nc1ccccc1Br` (stereo not drawn), the inhibition is inactive: 1.51%. To `CP(=O)(Nc1ccc(Cl)cc1)Oc1ccc(F)cc1` (stereo not drawn) belongs inactive: 8.58%; to `CCc1ccc(OP(C)(=O)N2CCN(c3ccc([N+](=O)[O-])cc3)CC2)cc1` (stereo not drawn), inactive: 6.84%. For the molecule `CP(=O)(NC(=O)Nc1ccccc1)Oc1ccccc1` (stereo not drawn), the inhibition is inactive: 2.64%. The result for `Cc1cc(C)cc(OP(C)(=O)Nc2ccc(SC(F)(F)F)cc2)c1` (stereo not drawn) reads inactive: 1.23%. To `CP(=O)(Nc1ccc(SC(F)(F)F)cc1)Oc1ccc(Cl)cc1` (stereo not drawn) belongs inactive: 1%. On to `Cc1cccc(C)c1OP(C)(=O)Nc1ccc(SC(F)(F)F)cc1` (stereo not drawn), for which the inhibition was inactive: 3.27%. With `CP(=O)(Oc1ccccc1)OC(c1ccccc1)C(F)(F)F` (stereo not drawn), the inhibition is inactive: -0.57%. To `CP(=O)(Nc1ccccn1)Oc1ccc(Cl)cc1` (stereo not drawn) belongs inactive: -4.61%; to `CCOC(=O)c1ccc(NP(C)(=O)Oc2ccc(OC)cc2)cc1` (stereo not drawn), inactive: 10.3%; to `CCOP(C)(=S)SCC(=O)NC(C)C(=O)O` (stereo not drawn), inactive: -9.61%. To `CP(=O)(Nc1ccccc1Br)Oc1ccccc1` (stereo not drawn) belongs inactive: 3.07%; to `COc1ccccc1OP(C)(=O)Nc1ccccc1` (stereo not drawn), inactive: 2.86%. To `CP(=S)(Nn1cnnc1)Oc1ccccc1` (stereo not drawn) belongs inactive: 5.65%; to `O=[N+]([O-])c1ccc2c(c1)C=Nc1ccccc1O2`, inactive: 4.26%; to `CC(C)(C)c1ccc(OP(C)(=O)Nc2ccc(SC(F)(F)F)cc2)cc1` (stereo not drawn), inactive: 2.1%. As to `Cc1cccc(C)c1OP(C)(N)=O` (stereo not drawn), the inhibition is inactive: -1.17%. As for `Cc1cc(C)cc(OP(C)(N)=O)c1` (stereo not drawn), the inhibition is inactive: 1.35%. The result for `COc1ccccc1OP(C)(=O)Nc1cc(Cl)ccc1C` (stereo not drawn) reads inactive: 5.12%. For the molecule `COc1ccc(OP(C)(=O)Nc2cccc(F)c2)cc1` (stereo not drawn), the inhibition was inactive: 13.1%. The result for `COc1ccccc1OP(C)(=O)Nc1ccc(C)cc1` (stereo not drawn) reads inactive: -2.09%.

Take `Cc1ccc(NP(C)(=O)Oc2ccccc2)c(C)c1` (stereo not drawn): the inhibition was inactive: 1.78%. Take `CCOC(=O)c1ccc(NP(C)(=O)Oc2ccccc2)cc1` (stereo not drawn): the inhibition was inactive: 3.8%. To `CCN(CC)CCCOC(=O)C(O)(c1ccccc1)c1ccccc1` belongs inactive: 9.33%; to `CCOC(=O)c1ccc(NP(C)(=O)Oc2cc(C)cc(C)c2)cc1` (stereo not drawn), inactive: 16.1%; to `Cc1cc(C)cc(OP(C)(=O)Nc2ccc(C)cc2C)c1` (stereo not drawn), inactive: 5.16%. To `COc1ccccc1OP(C)(=O)Nc1cccc(Br)c1` (stereo not drawn) belongs inactive: -3.01%; to `Cc1ccc(C)c(NP(C)(=O)Oc2ccccc2)c1` (stereo not drawn), inactive: -0.32%. As to `CP(=O)(Nc1cccc(Br)c1)Oc1ccccc1` (stereo not drawn), the inhibition is inactive: -1.1%. The result for `Cc1cc(C)cc(OP(C)(=O)Nc2ccccn2)c1` (stereo not drawn) reads inactive: -0.5%; that for `O=C(O)c1cccc(Nc2c([N+](=O)[O-])cc([N+](=O)[O-])cc2[N+](=O)[O-])c1`, inactive: 2%; that for `CC1=NCCc2c1[nH]c1ccccc21.O=[N+]([O-])c1cc([N+](=O)[O-])c(O)c([N+](=O)[O-])c1`, inactive: 13.1%.

On to `O=[N+]([O-])c1cc([N+](=O)[O-])c(Nc2nnnn2CCO)c([N+](=O)[O-])c1`, for which the inhibition was inactive: 11.2%. The result for `CCOC(=O)C(CC)C1=NC(C)(C)Cc2ccccc21.O=[N+]([O-])c1cc([N+](=O)[O-])c(O)c([N+](=O)[O-])c1` (stereo not drawn) reads inactive: 3.76%. `CP(=O)(Nc1ccc(SC(F)(F)F)cc1)Oc1ccccc1` (stereo not drawn): the inhibition was inactive: 6.41%.

As for `CCCOc1ccc(NP(C)(=O)Oc2ccc(Cl)cc2)cc1` (stereo not drawn), the inhibition is inactive: 10.5%. To `CN1CCCCC1COC(=O)C1(O)c2ccccc2CCc2ccccc21` (stereo not drawn) belongs inactive: 2.42%; to `COc1ccccc1OP(C)(=O)Nc1c(C)cccc1C` (stereo not drawn), inactive: 3.28%. To `O=[N+]([O-])c1cc([N+](=O)[O-])c(-n2nnc3ccccc32)c([N+](=O)[O-])c1` belongs inactive: 3.24%. To `Cc1nc2ccc3ccccc3c2s1.O=[N+]([O-])c1cc([N+](=O)[O-])c(O)c([N+](=O)[O-])c1` belongs inactive: 8.29%.

The record behind these values is PubChem BioAssay AID1445 (SRMLSC, 2008).
